Test system: L14 vaccinia virus (VV) in RM35 ADSCs
Type: cell-based

In the case of IFNγ, the Average pfu/sample was 1.75 × 10^5 pfu/sample.

— patent US11505782B2 (priority 2018, dated 2022)
